A mixed list of measured activities; the numbers were collected in NIAID ChemDB.

All rows: growth or infection tests; agent: Mycobacterium tuberculosis

Rows are shuffled and stem from different studies. ECn: concentration that inhibits the pathogen or its effect by n%. MIC bound: limit read from a one-dose screen. An empty or dashed field is not shown. a–b is a range or a potency band. MIC50, MIC90 and the like: level of inhibition, or share of isolates inhibited. Percent inhibition refers to the dose given; in toxicity tests it is the harm to the cells. Fold resistance has wild type as its base.

structure | strain | dose | changes | read-out | conditions | method | value
O=C(O)c1ccc2c(c1)C(=O)OC2=O | H37Rv |  |  | MIC bound |  | resazurin | >6.25 µg/mL
COc1c(N2CCNC(C)C2)c(F)cc2c(=O)c(C(=O)O)cn(C3CC3)c12 | 22 strains (rifampin- isoniazid-resistant) |  |  | MIC90 |  |  | 1.56 µg/mL
CCCCCCCCCCCCN1C(=O)CSC12CCCCC2 | H37Ra |  |  | EC50 |  | resazurin | >25 µg/mL
NCCCN1c2ccccc2Sc2ccccc21 | MDR-843 |  |  | MIC |  | resazurin | 2 µg/mL
CC1CN(c2cc3c(cc2F)c(=O)c(C(=O)O)cn3-c2ccc(F)cc2F)CCN1 | ATCC 35822 |  |  | MIC |  |  | 1 µg/mL
COc1ccc(-c2ccc(Cc3ccc(-c4ccc(OC)cc4)o3)o2)cc1 | H37Rv |  |  | MIC bound |  | BACTEC | >12.5 µg/mL
CCCCCCCCCCCCNCc1ccccc1O | Sensitive strains |  |  | MIC |  |  | 6.25 µg/mL
Cc1cn2c(C(=O)NCc3ccc(N4CCC(c5ccc(OC(F)(F)F)cc5)CC4)cc3)c(C)nc2s1 | H37Rv |  |  | MIC |  | resazurin / fluorescence | 0.007 µM
CCCCCS(=O)(=O)Nc1ccc2[nH]c(C(=O)OCC)c(C)c2c1 | H37Rv |  |  | MIC90 |  | resazurin | 0.049 µM
Cc1ccn2nc(S(=O)(=O)Nc3c(Br)ccc4cccnc34)nc2n1 | P887 |  | INH RIF resistant | MIC50 |  | visual reading | 0.5 µM
CCCCCCCCCCCCNCc1ccc(Cl)cc1 | H37Ra |  |  | MIC |  |  | <25 µg/mL
O=C(Oc1cc(Cl)ccc1C(=O)Nc1ccc(C(F)(F)F)cc1)c1cnccn1 | multidrug resistant Praha 1 |  |  | MIC | 14 d |  | 0.125 µM
CC(=O)C1=C(O)c2c(C)cc(C)nc2S(=O)(=O)N1CC(=O)c1ccccc1 | H37Rv |  |  | EC50 |  |  | >12.5 µg/mL
CCCCCCCCC=CCCCCCCCCNCc1ccc(F)cc1 | Sensitive strains |  |  | MIC |  |  | 12.5 µg/mL
NNC(=O)c1ccncc1 | H37Rv 331/88 |  |  | MIC | 14 d |  | 0.5–1 µM
Nc1nc(N)nc(-c2ccc([N+](=O)[O-])o2)n1 | PZA-R |  |  | MIC |  |  | 3.1 µg/mL
C[C@@H]1CN(c2c(F)c(N)c3c(=O)c(C(=O)O)cn(C4CC4)c3c2F)C[C@H](C)N1 | 900241 |  |  | MIC |  |  | 0.2 µg/mL
Cc1cc(C)c2c(n1)S(=O)(=O)N(CC(=O)c1ccccn1)C2=O | H37Rv |  |  | EC50 |  |  | >12.5 µg/mL
COC(=O)[C@]1(C)CCC[C@]2(C)C3C[C@H]4OO[C@@]3(CC[C@@H]12)[C@H]1O[C@@]41C(C)C | H37Rv | 12.8 µg/mL |  | inhibition |  | BACTEC | 0%
CCCCCCCCNCc1ccccc1[N+](=O)[O-] | Sensitive strains |  |  | MIC |  |  | 12.5 µg/mL
Cc1nc(-c2ccc(N=Cc3ccc(N(CCOS(C)(=O)=O)CCOS(C)(=O)=O)cc3Cl)cc2)c(C)s1.Cl.Cl | H37Rv |  |  | MIC bound |  | BACTEC | >12.5 µg/mL
CCCCCCCCC=CCCCCCCCCNCc1ccccc1O | H37Ra |  |  | MIC |  |  | <25 µg/mL
CC(=O)c1c(O)c(C)c(O)c(Cc2c(O)c3c(c(C(=O)/C=C/c4ccccc4)c2O)OC(C)(C)C=C3)c1O | H37Rv |  |  | MIC bound |  | BACTEC | >12.5 µg/mL
NNC(=O)c1ccncc1 | 35820 |  | Streptomycin-resistant | MIC80 |  | broth dilution | 0.2 µM
C=C/C(C)=C/[C@@]1(C)SC(=O)C(C)=C1O | PMH29:kasA/kasB |  |  | MIC |  |  | 30 µg/mL
O=C(/C=C/c1ccco1)c1ccc(Br)cc1O |  |  |  | EC50 |  |  | >12.5 µg/mL
Cc1cn2c(C(=O)NCc3ccc(N4CCOCC4)c(F)c3)c(C)nc2s1 | H37Rv |  | QcrB6 A317T | MIC |  | resazurin / fluorescence | 4.7 µM
CCOC(=O)NC(=S)NN(C)C1=NCC(C)(C)S1 | H37Rv |  |  | MIC bound |  | resazurin | >6.25 µg/mL
NC1CCN(c2nc3c(cc2F)c(=O)c(C(=O)O)cn3-c2ccc(F)cc2F)C1 | DRUG-SUS |  |  | MIC50 |  |  | >8 µg/mL
NNC(=O)c1ccncc1 | Isolate M0 |  |  | MIC |  |  | 0.031 µg/mL
O=c1[nH]cnc2c1cnn2Cc1cn(COC[C@@H](O)CO)nn1 | H37Rv | 12.5 µg/mL |  | inhibition |  | BACTEC | 0%
CC12CC(=O)C3C(CCC4CC(OS(=O)(=O)[O-])CCC43C)C1CC1OC(=O)C=C12.[Na+] | H37Rv |  |  | MIC bound |  | BACTEC | >12.8 µg/mL
CCCCS(=O)(=O)Nc1ccc2[nH]c(C(=O)Nc3cccc4ccccc34)c(C)c2c1 | H37Rv |  |  | MIC90 |  | resazurin | 25 µM
CC(=O)C1(C)C(=O)N(c2ccc(Br)cc2)C(=O)N1c1ccc(Br)cc1 | H37Rv | 12.5 µg/mL |  | inhibition |  | BACTEC | 15%
CCCCCCCCCCCCN1C(=O)C(CC(=O)O)SC12CCN(OC(=O)C(C)(C)C)CC2 | H37Ra |  |  | EC50 |  | resazurin | <25 µg/mL
C=C(C)/C=C/[C@]12C[C@H](C)[C@H]3CC[C@](C)(NC=O)[C@@H](CC[C@H]1C)[C@@H]32 | H37Rv | 64 µg/mL |  | inhibition |  |  | 100%
CCCCCCCCN1C(=O)CS(=O)C12CCCCC2 | H37Ra |  |  | EC50 |  | resazurin | >25 µg/mL
O=C1C2C3C=CC(C2C(=O)N1CN1CCSCC1)C1C2C(=O)N(CN4CCSCC4)C(=O)C2C31 | H37Rv | 6.25 µg/mL |  | inhibition |  | resazurin | 49%
Cc1c(N2C[C@@H](N)C3(CC3)C2)c(F)c(N)c2c(=O)c(C(=O)O)cn(C3CC3)c12 | 18 strains (levofloxacin-resistant) |  |  | MIC90 |  |  | 50 µg/mL
CCCCCCCCCCCCN1C(=O)C(C)SC12CCCCC2 | H37Ra |  |  | EC50 |  | resazurin | >25 µg/mL
CCc1ccc([C@H]2C[C@@H](C(F)(F)F)n3ncc(C(=O)NCc4ccc5c(c4)OCO5)c3N2)cc1 | H37Rv |  | MmpL3: Ala249Pro | fold resistance |  | fluorescence | 8
COc1nc2ccc(Br)cc2cc1[C@@H](c1ccccc1)[C@@](O)(CCN(C)C)c1cccc2ccccc12 |  |  | Bedaquiline-resistant A63P | MIC80 |  | broth dilution | >10 µM
CCCCCS(=O)(=O)Nc1ccc2[nH]c(Br)c(C)c2c1 | H37Rv |  |  | MIC90 |  | resazurin | 0.2 µM
CCC(=O)CCC1=Nc2nnc(CCCCc3nnc4n3C(=O)C(CCC(=O)CC)=N4)n2C1=O | H37Rv |  |  | MIC bound |  | BACTEC | >12.5 µg/mL
O=C(Oc1ccc(Br)cc1C(=O)Nc1ccc(C(F)(F)F)cc1)c1cnccn1 | extensively drug resistant Praha 131 |  |  | MIC | 21 d |  | 0.5 µM
CCCNC1=C2C[C@@H](C)C[C@@H](OC)[C@@H](OC(=O)CCCN)[C@H](C)/C=C(\C)[C@@H](OC(N)=O)[C@H](OC)/C=C\C=C(/C)C(=O)NC(=CC1=O)C2=O | H37Rv |  |  | MIC bound |  | resazurin | <6.25 µg/mL
NNC(=O)c1ccncc1 | Isolate UT2007 (katG S315T mutation) |  |  | MIC |  |  | 6 µg/mL
Cc1ccc(NCN2C(=O)c3ccccc3C2=O)cc1Cl | H37Rv |  |  | MIC bound |  | BACTEC | >12.5 µg/mL
NC1CCN(c2c(F)cc3c(=O)c(C(=O)O)cn(C4CC4)c3c2Cl)C1 | DRUG-SUS |  |  | MIC90 |  |  | 0.25 µg/mL
COc1ncc(F)c2nc(S(=O)(=O)Nc3c(O)cccc3C(C)O)nn12 | M23 |  | INH RIF resistant | MIC50 |  | visual reading | 0.5 µM
CC(=O)C1=C(O)c2c(C)cc(C)nc2S(=O)(=O)N1 | H37Rv |  |  | MIC |  |  | >12.5 µg/mL
C[C@H]1COc2c(N3CCN(C)CC3)c(F)cc3c(=O)c(C(=O)O)cn1c23 | ATCC 35830 |  |  | MBC |  |  | 2 µg/mL
O=C1c2ccccc2OC(c2ccccc2)C1O |  | 12.5 µg/mL |  | inhibition |  |  | 38%
N[C@@H]1CN(c2c(F)cc3c(=O)c(C(=O)O)cn([C@@H]4C[C@@H]4F)c3c2Cl)CC12CC2 | 22 strains (rifampin- isoniazid-resistant) |  |  | MIC50 |  |  | 0.39 µg/mL
Cc1ccc(S(=O)(=O)OCCn2sc3nc(C)cc(C)c3c2=O)cc1 | H37Rv |  |  | MIC |  |  | >12.5 µg/mL
O=C(Oc1ccc(Cl)cc1C(=O)Nc1ccc(Cl)c(Cl)c1)c1cnccn1 | multidrug resistant 234/2005 |  |  | MIC | 21 d |  | 0.125 µM
CCCCCCCCCCCCN1C(=O)C(CC(=O)O)SC12CCN(C(=O)C(N)CC(=O)O)CC2 | H37Ra | 25 µg/mL |  | inhibition |  | resazurin | 2%
COC(=O)[C@@H]1CN(C(C)=O)C(=O)N1C(=O)OCc1ccccc1 | H37Rv |  |  | MIC bound |  | BACTEC | >12.5 µg/mL
CC[C@@H](CO)NCCN[C@@H](CC)CO | H37Rv |  |  | MIC |  | resazurin | 1.25 µg/mL
CCN(CC)C(=S)[S][Sn]([S]C(=S)N(CC)CC)([c]1ccccc1)[c]1ccccc1 | H37Rv |  |  | MIC bound |  | BACTEC | ≤128 µg/mL
Nc1ccc(C(=O)O)c(O)c1 | 7800 | 0.38 µM |  | inhibition |  |  | 33%
CC1COc2c(N3CCN(C)CC3)c(F)cc3c(=O)c(C(=O)O)cn1c23 | ATCC 35826 |  |  | MBC |  |  | 1 µg/mL
OC[C@@H](O)COCn1cc(Cn2ncc3c(SCc4ccccc4)ncnc32)nn1 | H37Rv | 12.5 µg/mL |  | inhibition |  | BACTEC | 0%
Cc1cn2c(C(=O)NCc3cccc(C(F)(F)F)c3)c(C)nc2s1 | H37Rv |  |  | MIC |  | resazurin / fluorescence | 0.459 µM
CCCCS(=O)(=O)Nc1ccc2[nH]c(C(=O)NCc3ccc(Cl)cc3)c(C)c2c1 | H37Rv |  |  | MIC90 |  | resazurin | >100 µM
CC(Nc1ccc2ccccc2c1)C(=O)NN | H37Rv |  |  | EC50 |  |  | 0.5 µg/mL
NC(=O)c1cnccn1 | T5721/NIACIN+ |  |  | MIC |  |  | >2048 µg/mL
CN(C)c1ncnc2c1cnn2COC[C@@H](O)CO | H37Rv | 12.5 µg/mL |  | inhibition |  | BACTEC | 0%
NNC(=O)CNc1ccc2ccccc2c1 | Drug-resistant |  |  | EC50 |  |  | 0.5 µg/mL
Cc1cc(C)c2c(=O)n(CC(O)CN3CCC(Cc4ccccc4)CC3)sc2n1 | H37Rv |  |  | EC50 |  |  | <12.5 µg/mL
CC(O)C(NC(=O)OCc1ccccc1)C(=O)NC(CO)C(=O)NN | H37Rv |  |  | MIC |  | BACTEC | ≥12.8 µg/mL
O=C1CC(c2ccc(O)c(O)c2)Oc2c1c(O)cc(O[C@@H]1O[C@H](CO)[C@@H](O)[C@H](O)[C@H]1O)c2C1C(=O)c2c(O)cc(O)cc2OC1c1ccc(O)cc1 | H37Rv | 12.5 µg/mL |  | inhibition |  |  | 0%
O=C(Oc1ccc(Cl)cc1C(=O)Nc1ccc(C(F)(F)F)cc1)c1cnccn1 | multidrug resistant 53/2009 |  |  | MIC | 14 d |  | 0.125 µM
CSc1ncnc2c1cnn2COC[C@@H](O)CO | H37Rv | 12.5 µg/mL |  | inhibition |  | BACTEC | 0%
N#Cc1c(Nc2ccccc2)[n+]([O-])c2ccc(Cl)cc2[n+]1[O-] | H37Rv |  |  | MIC |  |  | <12.5 µg/mL
O=C1OC(c2ccccc2)C(=O)N1Cc1ccccc1 | H37Rv | 12.5 µg/mL |  | inhibition |  | BACTEC | 90%
COc1ccc(C2CC(=O)c3cc(C(=O)O)ccc3O2)cc1 |  | 12.5 µg/mL |  | inhibition |  |  | 0%
CCCCCCCCCCCCCCCCNCc1ccncc1 | H37Ra |  |  | MIC |  |  | <25 µg/mL
CCN(CC)c1ccc2nc3c4ccccc4c(=N)cc-3oc2c1 | PZA-R |  |  | MIC |  |  | 1.6 µg/mL
Cc1cn2c(C(=O)NCc3ccc(Oc4ccc(F)cc4)cc3)c(C)nc2s1 | H37Rv |  |  | MIC |  | luminescence | 25.7 µM
CCCCS(=O)(=O)Nc1ccc2[nH]c(C(=O)NC3CCOCC3)c(C)c2c1 | H37Rv |  |  | MIC90 |  | resazurin | 6.2 µM
O=C(Oc1ccc(Cl)cc1C(=O)Nc1cccc(C(F)(F)F)c1)c1cnccn1 | multidrug resistant 234/2005 |  |  | MIC | 14 d |  | 1 µM
CCC1OC(=O)CC(O)C(C)C(OC2OC(C)C(O)C(N(C)C)C2O)C(CC=O)CC(C)C(=O)/C=C\C2(C)OC2C1C | H37Rv | 12.5 µg/mL |  | inhibition |  | BACTEC | 13%
CCCCCCCCNC(CCO)c1cccc(Cl)c1 | H37Ra |  |  | MIC |  |  | <25 µg/mL
Cc1nc(N)sc1S(=O)(=O)F | H37Rv |  |  | MIC bound |  | BACTEC | >6.25 µg/mL
CN[C@@H]1[C@H](O[C@H]2[C@H](O[C@H]3[C@H](O)[C@@H](O)[C@H](N=C(N)N)[C@@H](O)[C@@H]3N=C(N)N)O[C@@H](C)[C@]2(O)C=O)O[C@@H](CO)[C@H](O)[C@H]1O | 17003 |  | Ethambutol-resistant | MIC80 |  | broth dilution | 0.3 µM